From ChEMBL document CHEMBL3352109, “Synthesis and antifungal activity of substituted salicylaldehyde hydrazones, hydrazides and sulfohydrazides” (Bioorg Med Chem, 2014)
Converted amounts (≈) assume the structure as drawn. The source made the active and inactive calls. The calls are words filed in the database; no cut-off is given here.

Key:
Nakaseomyces glabratus = assay: Antifungal activity against Candida glabrata ATCC 48435 by NCCLS method; type: functional
Procedure, shortened: (§1)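 Broth dilution per NCCLS yeast reference method, in HEPES-buffered RPMI with 1% DMSO. MIC80 is the lowest concentration giving more than 80% growth inhibition versus positive (no-drug) controls. Read by visual scoring, not absorbance. Highest level tested 125 µg/mL.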

Candida albicans = assay: Antifungal activity against Candida albicans ATCC 10231 by NCCLS method; type: functional; procedure, shortened: as §1

SMILES	MIC80 (Nakaseomyces glabratus)	MIC80 (Candida albicans)
O=[N+]([O-])c1ccc(N/N=C/c2cc([N+](=O)[O-])cc([N+](=O)[O-])c2O)cc1	125 µg/mL (≈ 360 µM)	125 µg/mL (≈ 360 µM)
O=C(N/N=C/c1cc([N+](=O)[O-])cc([N+](=O)[O-])c1O)c1ccc([N+](=O)[O-])cc1	inactive	inactive
